Results as given in paper PMC5722314, “Substitutions of PrP N-terminal histidine residues modulate scrapie disease pathogenesis and incubation time in transgenic mice” (2017).

Target: recombinant full-length mouse PrP (wt rPrP), PrP23-230 (mouse) (UniProt P04925)

recombinant full-length mouse PrP (wt rPrP), PrP23-230, P04925 23-230
percent decrease of aggregation with 1 uM Cu2+ against 0.02% SDS alone: 70%
percent decrease of aggregation with 100 uM EDTA against 0.02% SDS alone: 40%
percent increase of aggregation with 30 uM Mn2+ against 0.02% SDS alone: 15%
